Results published in paper PMC9171815, “Structural insights of a highly potent pan-neutralizing SARS-CoV-2 human monoclonal antibody” (Proceedings of the National Academy of Sciences of the …, 2022).

B1: mAb J08 immunoglobulin G (IgG) (antibody, V domains shown)
VH: QVQLVQSGAEVKKPGSSVKVSCKASGGTFSSYTISWVRQAPGQGLEWMGRIIPILDRVMYAQKFQGRVTITADKSTSTAYMELSSLRSEDTAVYYCARRAIDSDTYVEQSHFDYWGQGTLVTVSS
VL: EIVMTQSPATLSLSPGERATLSCRASQSVSSYLAWYQQKPGQAPSLLIYDASNRATGIPARFSGSGSGTDFTLTISSLEPEDFAVYYCQQPLTFGGGTKVEIK
notes: also called J08 IgG; wild-type J08; copies: 2 + 2
B2: Fab J08 (fragment antigen binding of mAb J08) (Fab, V domains shown)
VH: B1 VH
VL: B1 VL

Tests used:
[1] = target: T1, S-protein RBD from the original Wuhan strain (SARS-CoV-2, UniProt P0DTC2, biotin (only in the ACE-2 competition ELISA)); assay: ELISA; conditions: both partners purified
T1 construct: also called Wuhan RBD

[2] = target: recombinant SARS-CoV-2 RBD (crystallised with Fab J08) (SARS-CoV-2, UniProt P0DTC2); assay: crystal structure; conditions: both partners purified

| Binder | binding result [1] | binding result [2] |
| --- | --- | --- |
| B1 | binds |  |
| B2 |  | binds |
